Laboratory results published in paper PMC6753193 (Frontiers in Microbiology, 2019).

The chains behind the UniProt entries cited, without tags or fusion partners. Residues count along the entry.
UniProt P62136, 7-300 limits assumed: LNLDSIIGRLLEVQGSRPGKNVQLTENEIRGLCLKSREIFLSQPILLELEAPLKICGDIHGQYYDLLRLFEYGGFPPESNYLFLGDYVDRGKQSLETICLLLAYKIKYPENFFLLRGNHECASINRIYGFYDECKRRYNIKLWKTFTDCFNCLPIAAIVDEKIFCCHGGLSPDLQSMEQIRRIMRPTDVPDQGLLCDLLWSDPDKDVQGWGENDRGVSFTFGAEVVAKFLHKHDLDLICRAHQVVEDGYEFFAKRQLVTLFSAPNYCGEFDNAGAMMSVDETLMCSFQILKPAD

Target: WT PP1 (Homo sapiens, UniProt P62136)
Assay: biochemical
Format: binding

Question: What does the source list for `CC[C@H](C)[C@H](NC(=O)[C@H](Cc1ccccc1)NC(=O)[C@H](CS)NC(=O)[C@@H](NC(=O)[C@H](CCC(N)=O)NC(=O)[C@H](CS)NC(=O)[C@H](Cc1c[nH]cn1)NC(=O)[C@H](Cc1ccccc1)NC(=O)[C@H](CS)NC(=O)[C@H](CS)NC(=O)[C@H](CCCCN)NC(=O)[C@H](CCCCN)NC(=O)[C@H](CCCNC(=N)N)NC(=O)[C@H](CC(C)C)NC(=O)[C@@H]1CCCN1C(=O)[C@H](CO)NC(=O)[C@H](CO)NC(=O)[C@@H]1CCCN1C(=O)[C@H](Cc1ccccc1)NC(=O)[C@H](CCCCN)NC(=O)[C@H](Cc1ccc(O)cc1)NC(=O)[C@@H]1CCCN1C(=O)[C@H](COP(=O)(O)O)NC(=O)[C@H](CCCNC(=N)N)NC(=O)[C@@H]1CCCN1C(=O)[C@@H](NC(=O)[C@@H](N)Cc1c[nH]cn1)[C@@H](C)CC)C(C)C)C(=O)N[C@H](C(=O)N[C@@H](CCCCN)C(=O)O)[C@@H](C)O` [pRb-Tat, reference compound]?
Answer: Kd: 155 nM; kd: 0.003941 s⁻¹; kon (pH 7.4, read-out: ka): 25400 M⁻¹ s⁻¹
